Measured data: PubChem BioAssay AID1259414 (Drosophila RNAi Screening Center, 2018)

- Screen: 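Fly genes that alter Wolbachia amount inside host cells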 (primary screen)
- System: Drosophila JW18 cells infected with Wolbachia
- Knock-down reagent: long dsRNA against Drosophila genes, 0.25 µg dsRNA per well of a 384-well plate
- Time to read-out: 5 days
- Treatment: cells persistently infected with Wolbachia before knock-down; no added drug
- Read-out: 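Automated imaging of bacterial rRNA staining divided by host cell count, reported as plate-normalised robust z-score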
- Direction: Wolbachia per cell robust z: higher = more Wolbachia per host cell than the plate typical
- Call rule: 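Active if absolute robust z reaches 1.5 in two or more of three replicates, leaving out multi- or no-target dsRNAs, genes unexpressed in JW18 and A1 wells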
In all, the deposit lists about 24,000 reagents; this is an unselected part of those with a known target gene and a result. Over the whole deposit, about 1,210 (5%) were called active. 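Inactive calls also include excluded dsRNAs with several or no targets, genes unexpressed in JW18, and well A1, regardless of score.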 The numbers tell different reagents against one gene apart. Names joined by + are all predicted targets of the reagent.

predicted target | reagent | Wolbachia per cell robust z, rep 1 | Wolbachia per cell robust z, rep 2 | Wolbachia per cell robust z, rep 3 | activity call
CG34129 (GeneID 43181) | 1 | -2.78 | 0.536 | 0.3 | inactive
Aprt (GeneID 48224) | 1 | 0.272 | -0.0144 | 0.197 | inactive
CG3107 (GeneID 35475) | 1 | -1.01 | 0.578 | 0.0776 | inactive
PQBP1 (GeneID 43004) | 1 | -0.204 | 0.74 | 0.0422 | inactive
Mis12 (GeneID 38762) | 1 | 0.763 | 1.32 | -1.3 | inactive
Pdcd4 (GeneID 32337) | 1 | 1.1 | 0.867 | 0.466 | inactive
CG18870 (GeneID 59218) | 1 | 0.544 | 0.159 | -0.0736 | inactive
eag (GeneID 32428) | 1 | 0.263 | -0.156 | -0.477 | inactive
eag (GeneID 32428) | 2 | -0.646 | -0.141 | -3.51 | inactive
eag (GeneID 32428) | 3 | 0.62 | -0.559 | 0.375 | inactive
shep (GeneID 38605) | 1 | 0.995 | 0.277 | -1.09 | inactive
shep (GeneID 38605) | 2 | -0.0582 | -5.9 | -0.902 | inactive
shep (GeneID 38605) | 3 | -1.03 | -0.421 | -11.6 | inactive
CG7423 (GeneID 32894) | 1 | 0.514 | 0.704 | 0.873 | inactive
ave (GeneID 246638) | 1 | -0.032 | -1.65 | -0.285 | inactive
ave (GeneID 246638) | 2 | -0.264 | -1.27 | -2.59 | inactive
Dhpr (GeneID 39050) | 1 | -0.000715 | -1.07 | -0.981 | inactive
Inx3 (GeneID 44266) | 1 | -0.402 | 0.0784 | -0.181 | inactive
Inx3 (GeneID 44266) | 2 | -0.275 | -0.48 | -0.674 | inactive
CG13488 (GeneID 37496) | 1 | 0.133 | 0.566 | -1.93 | inactive
CG5568 (GeneID 38658) | 1 | -1.66 | -0.46 | -0.0903 | inactive
CG5568 (GeneID 38658) | 2 | 1.03 | 0.0557 | 0.573 | inactive
CG5568 (GeneID 38658) | 3 | -0.106 | 0.824 | -0.0486 | inactive
Cog2 (GeneID 41870) | 1 | -1.87 | -0.74 | 0.125 | inactive
Cyt-b5 (GeneID 35688) | 1 | 0.91 | -0.909 | -0.195 | inactive
CG15472 (GeneID 31409) | 1 | -1.45 | -2.89 | -1.33 | inactive
CG9630 (GeneID 40974) | 1 | 0.732 | 1.49 | 0.968 | inactive
CG34002 (GeneID 3885644) | 1 | 0.426 | 1.74 | 0.682 | inactive
CG42692 (GeneID 10178857) | 1 | 0.167 | 0.576 | 1.2 | inactive
CG2111 (GeneID 31995) | 1 | 1.79 | -1.62 | -0.428 | inactive
CG2111 (GeneID 31995) | 2 | 0.26 | 1.41 | 0.394 | inactive
UbcE2H (GeneID 31728) | 1 | -2.23 | -7.28 | -6.08 | inactive
UbcE2H (GeneID 31728) | 2 | -0.971 | -0.607 | -0.839 | inactive
Gdh (GeneID 42832) | 1 | -1.89 | -0.724 | -6.77 | active
Gdh (GeneID 42832) | 2 | 0.38 | 0.723 | 0.822 | inactive
CG1896 (GeneID 43738) | 1 | 0.711 | 1.54 | -6.71 | inactive
CR18275 + CG13373 | 1 | -2.22 | 0.517 | 0.59 | inactive
kermit (GeneID 46027) | 1 | 1.38 | 0.203 | 0.0876 | inactive
kermit (GeneID 46027) | 2 | 0.441 | 1.73 | 0.397 | inactive
CG18128 (GeneID 37756) | 1 | 0.243 | -0.252 | -0.5 | inactive
CG14835 (GeneID 38832) | 1 | 0.937 | 1.3 | -3.22 | inactive
upd1 (GeneID 32813) | 1 | -3.85 | 0.394 | 0.853 | inactive
upd1 (GeneID 32813) | 2 | -0.156 | 0.863 | -0.263 | inactive
CG11555 (GeneID 33193) | 1 | 1.23 | -0.53 | 0.348 | inactive
CG11555 (GeneID 33193) | 2 | -9.54 | -0.227 | -0.193 | inactive
CG10332 + IM18 | 1 | -0.243 | -0.358 | 0.468 | inactive
CG43322 (GeneID 33984) | 1 | -3.34 | -0.304 | -0.314 | inactive
CG43322 (GeneID 33984) | 2 | -0.0762 | -0.34 | -0.31 | inactive
spo (GeneID 38631) | 1 | -0.0851 | -2.52 | -0.733 | inactive
sc (GeneID 30982) | 1 | 0.148 | 0.14 | 1.14 | inactive
sc (GeneID 30982) | 2 | 0.986 | 0.663 | -1.11 | inactive
Jasper (GeneID 43576) | 1 | 0.793 | 0.255 | 0.242 | inactive
mol (GeneID 34872) | 1 | 0.235 | 0.391 | -2.27 | inactive
mol (GeneID 34872) | 2 | 1.87 | 0.918 | -10.2 | inactive
mol (GeneID 34872) | 3 | -2.21 | 0.0737 | 0.0976 | inactive
mol (GeneID 34872) | 4 | 0.0309 | -0.488 | 0.755 | inactive
CG32284 (GeneID 317956) | 1 | -0.617 | 0.863 | 1.08 | inactive
CG43373 + CG42514 | 1 | 0.502 | 0.163 | 0.343 | inactive
CG34222 (GeneID 5740154) | 1 | 0.578 | -2.3 | 1.32 | inactive
CG32603 (GeneID 318109) | 1 | -5 | 0.563 | -4.17 | inactive
CG32603 (GeneID 318109) | 2 | -0.0345 | 0.14 | -1.15 | inactive
CG32603 (GeneID 318109) | 3 | -0.579 | -0.22 | -1.47 | inactive
MED24 (GeneID 38914) | 1 | 0.603 | 0.513 | 0.606 | inactive
CG3062 (GeneID 31396) | 1 | -1.65 | -2.71 | -0.342 | inactive
Acyp2 (GeneID 41910) | 1 | -0.0805 | 0.14 | 0.629 | inactive
Acyp2 (GeneID 41910) | 2 | -0.329 | -1.44 | -0.68 | inactive
CG7655 (GeneID 42128) | 1 | -0.442 | -4.18 | -4.9 | active
Dnaaf4 (GeneID 34547) | 1 | -0.468 | -0.329 | -0.97 | inactive
CG14313 (GeneID 42176) | 1 | 0.443 | 0.0522 | -0.00978 | inactive
Tsp29Fa (GeneID 34211) | 1 | -2.03 | 0.164 | -4.67 | inactive
Tsp29Fa (GeneID 34211) | 2 | -1.47 | -0.571 | -1.29 | inactive
Polr3A (GeneID 32524) | 1 | 0.11 | 0.543 | 1.25 | inactive
Epp (GeneID 42840) | 1 | -0.735 | -1.54 | 0.0303 | inactive
Epp (GeneID 42840) | 2 | -0.0679 | -0.943 | -0.434 | inactive
Epp (GeneID 42840) | 3 | -2.23 | -2.59 | -0.261 | active
CG32554 (GeneID 32767) | 1 | 0.345 | 0.632 | -0.821 | inactive
CG32554 (GeneID 32767) | 2 | -0.263 | -1.93 | -0.201 | inactive
mag (GeneID 40267) | 1 | 0.598 | 0.574 | 0.827 | inactive
mag (GeneID 40267) | 2 | 0.756 | 0.0892 | 0.0911 | inactive
rha (GeneID 43071) | 1 | -9.98 | 0.017 | 3.09 | inactive
gce (GeneID 32457) | 1 | -3.37 | 0.232 | -1.2 | inactive
gce (GeneID 32457) | 2 | -2.68 | -0.00234 | -1.77 | inactive
gce (GeneID 32457) | 3 | 0.883 | -1.09 | 0.694 | inactive
gce (GeneID 32457) | 4 | 0.809 | 1.14 | 0.238 | inactive
DCP1 (GeneID 37790) | 1 | -0.277 | 0.137 | -5.04 | inactive
DCP1 (GeneID 37790) | 2 | -6.73 | -7.06 | -2.55 | active
l(3)mbn (GeneID 38701) | 1 | -0.788 | -0.493 | -2.46 | inactive

Entries above whose target name starts with P or p (3):
predicted target | reagent | Wolbachia per cell robust z, rep 1 | Wolbachia per cell robust z, rep 2 | Wolbachia per cell robust z, rep 3 | activity call
PQBP1 (GeneID 43004) | 1 | -0.204 | 0.74 | 0.0422 | inactive
Pdcd4 (GeneID 32337) | 1 | 1.1 | 0.867 | 0.466 | inactive
Polr3A (GeneID 32524) | 1 | 0.11 | 0.543 | 1.25 | inactive
